A mixed list of measured activities; the numbers were collected in NIAID ChemDB.

Shared fields: tests on isolated targets; organism: HIV-1; protein: Reverse transcriptase; endpoint: IC50

ICn is the concentration giving n% inhibition. Rows are shuffled and stem from different studies. An empty or dashed field is not shown.

structure	changes	strain	method	result
CC(C)(C#Cc1ccc(NC(=O)CSc2nnnn2-c2cc(C(C)(C)C)ccc2Cl)c(Cl)c1)NC(=O)CN=c1ccn(O)cc1	-	WT	PicoGreen / fluorescence	<1 µM
Nc1ccc2c(c1)CN(c1nn3c(C(F)F)nnc3c3ccccc13)CC2	-	IIIB	RT activity / fluorescence	0.61 µM
CCN1c2ncc(CCOc3ccc(-c4ccc(CCC(=O)O)cc4)cc3C)cc2C(=O)N(C)c2cccnc21	-	IIIB	nucleotide incorporation / radiometric	<0.05 µM
CC(C)(C#Cc1ccc(NC(=O)CSc2nnnn2-c2ccc(C3CC3)cc2Cl)c(Cl)c1)OCCN	-	WT	PicoGreen / fluorescence	<1 µM
COc1cc2c(cc1N)CN(c1nn3c(C4CC4)nnc3c3ccccc13)CC2	-	KER2008	RT activity / fluorescence	4.35 µM
CCN1c2ncc(CCOc3ccc(-c4ccncc4)cc3C)cc2C(=O)N(C)c2cccnc21	-	IIIB	nucleotide incorporation / radiometric	<0.05 µM
CC(C)(C)c1ccc(-n2nnnc2SCC(=O)Nc2ccc(C#CCCCCO)cc2Cl)c(Cl)c1	-	WT	PicoGreen / fluorescence	<1 µM
Nc1ccc2c(c1)CN(c1nn3c(C4CC4)nnc3c3ccccc13)CC2	-	98US_MSC5016	RT activity / fluorescence	0.26 µM
CCN1c2ncc(CCOc3ccc(NC(=O)c4ccc(Cl)nc4)cc3C)cc2C(=O)N(C)c2cccnc21	RT-K103N Y181C	IIIB	nucleotide incorporation / radiometric	<0.05 µM
CC(C)(C)c1ccc(-n2nnnc2SCC(=O)Nc2ccc(C(=O)Nc3ccc(N4CCOCC4)cc3)cc2Cl)c(Cl)c1	-	WT	PicoGreen / fluorescence	<1 µM
Cc1nnc2c3ccccc3c(N3CCc4ccc(C(=O)O)cc4C3)nn12	-	IIIB	RT activity / fluorescence	57.5 µM
CC1(C)CN(CCOC(C)(C)C#Cc2ccc(NC(=O)CSc3nnnn3-c3ccc(C4CC4)cc3Cl)c(Cl)c2)C=N1	-	WT	PicoGreen / fluorescence	<1 µM
CCN1c2ncc(CCOc3ccc(NC(=O)C4CC4C(=O)O)cc3C)cc2C(=O)N(C)c2cccnc21	-	IIIB	nucleotide incorporation / radiometric	<0.05 µM
N#Cc1ccc2c(c1)CN(c1nn3c(C4CC4)nnc3c3ccccc13)CC2	-	98US_MSC5016	RT activity / fluorescence	1.96 µM
CCc1cc(CCc2nc3ccccc3o2)c(=O)[nH]c1C	RT-Y188C	-	nucleotide incorporation	1.209 µM

A second listing of 2 rows from above:

Nc1ccc2c(c1)CN(c1nn3c(C4CC4)nnc3c3ccccc13)CC2 ; strain: 98US_MSC5016 ; method: RT activity / fluorescence ; result: 0.26 µM
CC(C)(C#Cc1ccc(NC(=O)CSc2nnnn2-c2ccc(C3CC3)cc2Cl)c(Cl)c1)OCCN ; strain: WT ; method: PicoGreen / fluorescence ; result: <1 µM